Experimental data: paper PMC6299077 (Nature Communications, 2018)

Target: the molecule itself
Test: crystal structure

B1: tHN of BoNT/A1 (beltless translocation domain of botulinum neurotoxin A1, residues K547–K871) (domain or fragment)
chain: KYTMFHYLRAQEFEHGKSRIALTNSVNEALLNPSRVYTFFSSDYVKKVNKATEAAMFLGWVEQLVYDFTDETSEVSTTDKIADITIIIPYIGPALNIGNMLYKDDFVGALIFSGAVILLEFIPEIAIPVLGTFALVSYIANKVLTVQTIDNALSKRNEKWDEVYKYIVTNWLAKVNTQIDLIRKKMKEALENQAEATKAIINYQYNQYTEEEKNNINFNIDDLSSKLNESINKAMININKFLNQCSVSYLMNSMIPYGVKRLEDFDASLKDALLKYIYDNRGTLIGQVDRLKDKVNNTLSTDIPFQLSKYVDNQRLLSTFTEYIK
With B1 the “stoichiometry N” value was 2.
